The results in this text go back to patent US7214497.

The target of this assay is human VESPR (Viral Encoded Semaphorin Protein Receptor), native, on human cells, human, O60486 35-1568. Put plainly: flow cytometry, 5 ug/mL A39R/Fc on U937 cells (Human Monocyte-Type Cell). A general note: A flow cytometer gives signals particle by particle.

As to “Ectromelia Semaphorin A39R/immunoglobulin fusion protein (A39R/Fc)”, the result was “binds”.
